Patent publication US20250049819A1, “METHODS FOR TREATING AND PREVENTING C. DIFFICILE INFECTION” (Paratek Pharmaceuticals, Inc., priority 2016, published 2025)

Assay: Bioassay of antimicrobial concentration in gut model vessels (Example 3)
Settings: instillation 430 mg/L once daily for 7 days

## CN(C)c1cc(CNCC(C)(C)C)c(O)c2c1C[C@H]1C[C@H]3[C@H](N(C)C)C(O)=C(C(N)=O)C(=O)[C@@]3(O)C(O)=C1C2=O (stereo in doubt) [Omadacycline]
  peak bioactive omadacycline concentration, vessel 1: ~370 mg/L
  peak bioactive omadacycline concentration, vessel 2: ~150 mg/L
  peak bioactive omadacycline concentration, vessel 3: ~150 mg/L
